Anti-infective test results gathered from many reports (values: NIAID ChemDB through PubChem).

Common to all: growth or infection tests; agent: Human cytomegalovirus; endpoint: EC50

Lines come from different laboratories, so protocols vary.

smiles,strain,method,cell line,result
Cc1nc(N[C@@H]2c3ccccc3C[C@@H]2O)nc(-n2ccnc2C)c1[N+](=O)[O-],,,,0.3 µM
Nc1nc2c(ncn2COC(CO)CO)c(=O)[nH]1,AD169,ELISA,MRC-5,2.7 µM
O=c1[nH]c(=O)n([C@@H]2O[C@H](CO)[C@@H](O)[C@@H]2O)cc1/C=C/Br,AD169,plaque count / crystal violet,HEL,69.9 µg/mL
Nc1ccn(C[C@H]2COP(=O)(O)CO2)c(=O)n1,C8914-6 drug-resistant mutant,plaque count,MRC-5,1.45 µM
Nc1nc2c(ncn2[C@@H]2C[C@H](CO)[C@H]2CO)c(=O)[nH]1,AD169,plaque count / crystal violet,HEL,0.19 µg/mL
CC(C)Nc1nc2cc(Cl)c(Cl)cc2n1[C@H]1O[C@@H](CO)[C@H](O)[C@@H]1O,AD169,virus yield,HFF,<1.1 µM
Nc1ncnc2c1ncn2C[C@H]1COP(=O)(O)CO1,AD169,hybridisation,HEL,0.16 µM
Nc1nc2c(ncn2COC(CO)CO)c(=O)[nH]1,TOWNE,plaque count,HFF,0.75 µg/mL
Cc1cc(C)cc(Cn2c(SCC#N)nccc2=S)c1,AD169,,,>1.7 µM
Cc1nc(N(C)c2ccccc2)nc(-n2ccnc2C)c1[N+](=O)[O-],,,,~1 µM
Nc1nc2c(ncn2COC(CO)CO)c(=O)[nH]1,VR5120 (ganciclovir-resistant),plaque count,,25 µM
Cc1cc(C)cc(Cn2c(=O)ccn(CC(=O)c3ccccc3)c2=O)c1,AD169,,,110 µM
Nc1nc2c(ncn2[C@H]2C=C[C@@H](CO)[C@H](O)C2)c(=O)[nH]1,AD169,,,1.5 µg/mL
OC[C@H]1O[C@@H](n2c(Br)nc3cc(Cl)c(Cl)cc32)[C@H](O)[C@@H]1O,TOWNE,virus yield,HFF,<0.45 µM
CO[C@@H]1Cc2ccccc2[C@@H]1Nc1nc(C)c([N+](=O)[O-])c(-n2ccnc2)n1,,,,0.11 µM
Cc1cc(C)cc(Cn2c(=S)ccn(CC(c3ccccc3)c3ccccc3)c2=O)c1,AD169,,,>120 µM
Cc1nc(NC2Cc3ccccc3C2)nc(-n2ccnc2C)c1[N+](=O)[O-],,,,0.6 µM
Cc1cc(C)cc(Cn2c(=S)ccn(Cc3ccccn3)c2=O)c1,AD169,,,30 µM
Cc1nc(NC2CCc3cc(F)c(F)cc32)nc(-n2ccnc2C)c1[N+](=O)[O-],,,,0.15 µM
Cc1cc(C)cc(Cn2c(=O)ccn(Cc3ccsc3)c2=O)c1,AD169,,,23 µM
Cc1nc(N2CCC[C@H](C)C2)nc(-n2ccnc2)c1[N+](=O)[O-],,,,0.08 µM
Nc1ccn(C[C@@H](CO)OCP(=O)(O)O)c(=O)n1,AD169,hybridisation,HEL,0.05 µM
Nc1ccn(C[C@@H](CO)OCP(=O)(O)O)c(=O)n1,D16 (ganciclovir-resistant),plaque count,MRC-5,13 µg/mL
Nc1nc2c(ncn2COC(CO)CO)c(=O)[nH]1,TOWNE,virus yield,HFF,<2.4 µM
CCCCCCCCCCCCCCCCOCCCOP(=O)(O)CO[C@H](CO)Cn1ccc(N)nc1=O,C8805/37-1-1 (drug-resistant mutant),plaque count,MRC-5,0.00095 µM
COc1cccc(N2CCN(C3=Nc4c(F)cccc4[C@H](CC(=O)O)N3c3cc(C(F)(F)F)ccc3OC)CC2)c1,Clinical isolate 1,plaque count,,0.0015 µM
OC[C@H]1O[C@@H](n2c(Br)nc3cc(Cl)c(Cl)cc32)[C@H](O)[C@@H]1O,C4 (D341E),virus yield,,<6.8 µM
CC(C)Nc1nc2cc(Cl)c(Cl)cc2n1[C@H]1O[C@@H](CO)[C@H](O)[C@@H]1O,4955REC (THR700ALA),hybridisation,MRC-5,0.06 µM
O[C@@H]1[C@H](O)CO[C@H]1n1c(Cl)nc2cc(Cl)c(Cl)cc21,TOWNE,virus yield,HFF,<0.46 µM
Nc1nccc2c1ncn2C[C@@H](CO)OCP(=O)(O)O,AD169,hybridisation,HEL,0.18 µM
Nc1nc2c(ncn2COC(CO)CO)c(=O)[nH]1,C8303,hybridisation,MRC-5,0.8 µM
Cc1cc(C)cc(Cn2c(=O)ccn(Cc3ccccn3)c2=O)c1,AD169,,,>160 µM
O=C(NCc1ccc(Cl)cc1)c1c[nH]c2ccc(C#CCO)cc2c1=O,SCH,plaque count,,1.3 µM
CN(C)c1cccc2c(S(=O)(=O)Nc3ccc(NC(=O)C(C)(C)CO)cc3)cccc12,2916R (1263W94-resistant),virus yield,HFF,<0.9 µM
OC[C@@H]1O[C@@H](n2c(Cl)nc3cc(Cl)c(Cl)cc32)[C@H](O)[C@@H]1O,TOWNE,virus yield,HFF,<5.9 µM
CC[C@H]1CCCC[C@H]1Nc1nc(C)c([N+](=O)[O-])c(-n2ccnc2)n1,,,,0.09 µM
Cc1cc(C)cc(Cn2c(=O)ccn(Cc3ccoc3)c2=O)c1,AD169,,,23 µM

The first 5 rows once more:

| smiles | strain | method | cell line | result |
|---|---|---|---|---|
| Cc1nc(N[C@@H]2c3ccccc3C[C@@H]2O)nc(-n2ccnc2C)c1[N+](=O)[O-] |  |  |  | 0.3 µM |
| Nc1nc2c(ncn2COC(CO)CO)c(=O)[nH]1 | AD169 | ELISA | MRC-5 | 2.7 µM |
| O=c1[nH]c(=O)n([C@@H]2O[C@H](CO)[C@@H](O)[C@@H]2O)cc1/C=C/Br | AD169 | plaque count / crystal violet | HEL | 69.9 µg/mL |
| Nc1ccn(C[C@H]2COP(=O)(O)CO2)c(=O)n1 | C8914-6 drug-resistant mutant | plaque count | MRC-5 | 1.45 µM |
| Nc1nc2c(ncn2[C@@H]2C[C@H](CO)[C@H]2CO)c(=O)[nH]1 | AD169 | plaque count / crystal violet | HEL | 0.19 µg/mL |

Blank or dashed fields: not listed here. ECn: concentration that inhibits the pathogen or its effect by n%.